tested on: HCV dual reporter subgenomic replicon (B6b cell line); assay: HCV dual reporter subgenomic replicon assay, Renilla luciferase (antiviral activity); assay type: cell-based, Hepatitis C virus; details: therapeutic index = CC50 divided by EC50
Experimental: The compounds described herein were tested for antiviral activity utilizing a dual-reporter replicon assay as described in U.S. patent application Ser. No. 10/818,075 (the '075 application), filed Apr. 5, 2004. The disclosure of the '075 application is incorporated herein.
Cell-based antiviral activity was evaluated in the previously described HCV dual reporter subgenomic replicon system (the '075 application). With this system, the effects of a compound on both HCV replication and cell viability can be simultaneously determined by measuring the intracellular levels of two separate reporter proteins. The dicistronic selectable replicon contains the Renilla luciferase gene such that Renilla luciferase activity within stably-transfected cells serves as a marker of HCV replication. The firefly luciferase gene is stably integrated into and expressed by the Huh-7 host cells. Since firefly luciferase activity is dependent upon cellular transcription and translation, firefly luciferase activity serves as an indicator of cell viability.
The dual reporter selectable replicon cell line (B6b) was maintained in DMEM supplemented with 10% FBS, L-glutamine, non-essential amino acids, penicillin, streptomycin, and selection agents (200 ug/ml G418 and 6 ug/ml blastocidin). On the first day of the experiment, cells were trypsinized, washed, and diluted in medium lacking the selection agents. Cells were transferred to 96-well, black-walled, clear bottom plates at a density of 2×10^4 cells in 150 ul of medium per well. Cells were allowed to settle for 60 to 90 minutes while compounds were being prepared. Each compound was initially diluted to a 4× working stock (2.56% DMSO in tissue culture medium) that was then serially diluted nine times in half log increments in medium with 2.56% DMSO. Fifty microliters of each dilution were then added in triplicate to the plated cells in order to obtain final IX compound concentrations with 0.64% DMSO. Typical testing concentrations ranged from 320 uM to 10 nM. Control wells containing 0.64% DMSO without compound were also included on each plate.
After 3 days of incubation under humidity at 37° C. with 5% CO2, plates were microscopically examined for compound precipitation and cell death. Tissue culture medium was then aspirated and cells were lysed with 20 ul of 1× Passive Lysis Buffer (Promega, Madison, Wis.). Reporter activity was measured using a MicroBeta Jet 1450 (Perkin Elmer, Boston, Mass.) following sequential 50 ul additions of firefly and Renilla luciferase substrates as described in the manufacturers protocol (Promega). Luciferase activities were expressed as a percentage of the signals observed in the compound-free control wells. The amount of compound required to reduce Renilla luciferase expression by 50% is defined as the 50% effective concentration, or EC50. The amount of compound that reduces firefly luciferase expression by 50% is defined as the 50% cytotoxic concentration, or CC50. A therapeutic index (TI) is calculated by dividing the CC50 by the EC50.

Compound	Replicon TI
O=C(N[C@H]1CCCCC/C=C\[C@@H]2C[C@@]2(C(=O)O)NC(=O)[C@@H]2C[C@@H](Oc3cc(-c4ccccn4)nc4ccsc34)CN2C1=O)OC1CCCC1 [Example 11, (2R,12Z,13aS,14aR,16aS)-6-{[(cyclopentyloxy)carbonyl]amino}-5,16-dioxo-2-[(5-pyridin-2-ylthieno[3,2-b]pyridin-7-yl)oxy]-1,2,3,6,7,8,9,10,11,13a,14,15,16,16a-tetradecahydrocyclopropa[e]pyrrolo[1,2-a][1,4]diazacyclopentadecine-14a(5H)-carboxylic acid]	780
O=C(N[C@H]1CCCCC/C=C\[C@@H]2C[C@@]2(C(=O)O)NC(=O)[C@@H]2C[C@@H](Oc3cc(-c4ccccn4)nc4ccsc34)CN2C1=O)OC1CCC1 [Example 13, (2R,6S,12Z,13aS,14aR,16aS)-6-{[(Cyclobutyloxy)carbonyl]amino}-5,16-dioxo-2-[(5-pyridin-2-ylthieno[3,2-b]pyridin-7-yl)oxy]-1,2,3,6,7,8,9,10,11,13a,14,15,16,16a-tetradecahydrocyclopropa[e]pyrrolo[1,2-a][1,4]diazacyclopentadecine-14a(5H)-carboxylic acid]	520
CC(C)(C)OC(=O)N[C@H]1CCCCC/C=C\[C@@H]2C[C@@]2(C(=O)O)NC(=O)[C@@H]2C[C@@H](Oc3cc(-c4ccccn4)nc4ccsc34)CN2C1=O [Example 14, (2R,6S,12Z,13aS,14aR,16aS)-6-[(Tert-butoxycarbonyl)amino]-5,16-dioxo-2-[(5-pyridin-2-ylthieno[3,2-b]pyridin-7-yl)oxy]-1,2,3,6,7,8,9,10,11,13a,14,15,16,16a-tetradecahydrocyclopropa[e]pyrrolo[1,2-a][1,4]diazacyclopentadecine-14a(5H)-carboxylic acid]	150
O=C(CC1CC1)N[C@H]1CCCCC/C=C\[C@@H]2C[C@@]2(C(=O)O)NC(=O)[C@@H]2C[C@@H](Oc3cc(-c4ccccn4)nc4ccsc34)CN2C1=O [Example 16, (2R,6S,12Z,13aS,14aR,16aS)-6-[(Cyclopropylacetyl)amino]-5,16-dioxo-2-[(5-pyridin-2-ylthieno[3,2-b]pyridin-7-yl)oxy]-1,2,3,6,7,8,9,10,11,13a,14,15,16,16a-tetradecahydrocyclopropa[e]pyrrolo[1,2-a][1,4]diazacyclopentadecine-14a(5H)-carboxylic acid]	1800
O=C(N[C@H]1CCCCC/C=C\[C@@H]2C[C@@]2(C(=O)O)NC(=O)[C@@H]2C[C@@H](Oc3nc(-c4ccccn4)nc4sccc34)CN2C1=O)OC1CCCC1 [Example 26, (2R,6S,12Z,13aS,14aR,16aS)-6-{[(Cyclopentyloxy)carbonyl]amino}-5,16-dioxo-2-[(2-pyridin-2-ylthieno[2,3-d]pyrimidin-4-yl)oxy]-1,2,3,6,7,8,9,10,11,13a,14,15,16,16a-tetradecahydrocyclopropa[e]pyrrolo[1,2-a][1,4]diazacyclopentadecine-14a(5H)-carboxylic acid]	1200
O=C(N[C@H]1CCCCC/C=C\[C@@H]2C[C@@]2(C(=O)O)NC(=O)[C@@H]2C[C@@H](Oc3nc(-c4ccccn4)nc4sccc34)CN2C1=O)OC1CCC1 [Example 28, (2R,6S,12Z,13aS,14aR,16aS)-6-{[(cyclobutyloxy)carbonyl]amino}-5,16-dioxo-2-[(2-pyridin-2-ylthieno[2,3-d]pyrimidin-4-yl)oxy]-1,2,3,6,7,8,9,10,11,13a,14,15,16,16a-tetradecahydrocyclopropa[e]pyrrolo[1,2-a][1,4]diazacyclopentadecine-14a(5H)-carboxylic acid]	140
CC(C)(C)OC(=O)N[C@H]1CCCCC/C=C\[C@@H]2C[C@@]2(C(=O)O)NC(=O)[C@@H]2C[C@@H](Oc3nc(-c4ccccn4)nc4sccc34)CN2C1=O [Example 29, (2R,6S,12Z,13aS,14aR,16aS)-6-[(tert-butoxycarbonyl)amino]-5,16-dioxo-2-[(2-pyridin-2-ylthieno[2,3-d]pyrimidin-4-yl)oxy]-1,2,3,6,7,8,9,10,11,13a,14,15,16,16a-tetradecahydrocyclopropa[e]pyrrolo[1,2-a][1,4]diazacyclopentadecine-14a(5H)-carboxylic acid]	31
O=C(CC1CC1)N[C@H]1CCCCC/C=C\[C@@H]2C[C@@]2(C(=O)O)NC(=O)[C@@H]2C[C@@H](Oc3nc(-c4ccccn4)nc4sccc34)CN2C1=O [Example 31, (2R,6S,12Z,13aS,14aR,16aS)-6-[(Cyclopropylacetyl)amino]-5,16-dioxo-2-[(2-pyridin-2-ylthieno[2,3-d]pyrimidin-4-yl)oxy]-1,2,3,6,7,8,9,10,11,13a,14,15,16,16a-tetradecahydrocyclopropa[e]pyrrolo[1,2-a][1,4]diazacyclopentadecine-14a(5H)-carboxylic acid]	670
O=C(N[C@H]1CCCCC/C=C\[C@@H]2C[C@@]2(C(=O)O)NC(=O)[C@@H]2C[C@@H](Oc3nc(-c4ccccn4)nc4ccsc34)CN2C1=O)OC1CCCC1 [Example 41, (2R,6S,12Z,13aS,14aR,16aS)-6-{[(cyclopentyloxy)carbonyl]amino}-5,16-dioxo-2-[(2-pyridin-2-ylthieno[3,2-d]pyrimidin-4-yl)oxy]-1,2,3,6,7,8,9,10,11,13a,14,15,16,16a-tetradecahydrocyclopropa[e]pyrrolo[1,2-a][1,4]diazacyclopentadecine-14a(5H)-carboxylic acid]	2600
O=C(N[C@H]1CCCCC/C=C\[C@@H]2C[C@@]2(C(=O)O)NC(=O)[C@@H]2C[C@@H](Oc3nc(-c4ccccn4)nc4ccsc34)CN2C1=O)OC1CCC1 [Example 43, (2R,6S,12Z,13aS,14aR,16aS)-6-{[(cyclobutyloxy)carbonyl]amino}-5,16-dioxo-2-[(2-pyridin-2-ylthieno[3,2-d]pyrimidin-4-yl)oxy]-1,2,3,6,7,8,9,10,11,13a,14,15,16,16a-tetradecahydrocyclopropa[e]pyrrolo[1,2-a][1,4]diazacyclopentadecine-14a(5H)-carboxylic acid]	>1700
CC(C)(C)OC(=O)N[C@H]1CCCCC/C=C\[C@@H]2C[C@@]2(C(=O)O)NC(=O)[C@@H]2C[C@@H](Oc3nc(-c4ccccn4)nc4ccsc34)CN2C1=O [Example 44, (2R,6S,12Z,13aS,14aR,16aS)-6-[(Tert-butoxycarbonyl)amino]-5,16-dioxo-2-[(2-pyridin-2-ylthieno[3,2-d]pyrimidin-4-yl)oxy]-1,2,3,6,7,8,9,10,11,13a,14,15,16,16a-tetradecahydrocyclopropa[e]pyrrolo[1,2-a][1,4]diazacyclopentadecine-14a(5H)-carboxylic acid]	1100
O=C(CC1CC1)N[C@H]1CCCCC/C=C\[C@@H]2C[C@@]2(C(=O)O)NC(=O)[C@@H]2C[C@@H](Oc3nc(-c4ccccn4)nc4ccsc34)CN2C1=O [Example 46, (2R,6S,12Z,13aS,14aR,16aS)-6-[(Cyclopropylacetyl)amino]-5,16-dioxo-2-[(2-pyridin-2-ylthieno[3,2-d]pyrimidin-4-yl)oxy]-1,2,3,6,7,8,9,10,11,13a,14,15,16,16a-tetradecahydrocyclopropa[e]pyrrolo[1,2-a][1,4]diazacyclopentadecine-14a(5H)-carboxylic acid]	>3500

Reference: patent US20070249637A1, “Inhibitors Of Hepatitis C Virus Protease, And Compositions And Treatments Using The Same” (priority 2004, published 2007)
